Source: PubChem BioAssay AID1259414 (Drosophila RNAi Screening Center, 2018)
Assay: 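Fly genes that alter Wolbachia amount inside host cells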 (primary screen). Cells: Drosophila JW18 cells infected with Wolbachia. Knock-down reagent: long dsRNA against Drosophila genes, 0.25 µg dsRNA per well of a 384-well plate. Time to read-out: 5 days. Conditions: cells persistently infected with Wolbachia before knock-down; no added drug. Detection: 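Imaged fluorescence in situ signal for Wolbachia 23S rRNA per DAPI-counted host cell, given as a robust z-score within each plate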. Reading the numbers: Wolbachia per cell robust z: higher = more Wolbachia per host cell than the plate typical. Active means: 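Active if absolute robust z reaches 1.5 in two or more of three replicates, leaving out multi- or no-target dsRNAs, genes unexpressed in JW18 and A1 wells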.
In all, the deposit lists about 24,000 reagents; shown is a random part of those that have a named target and a result. In the full data, about 1,210 (5%) were called active. 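Inactive calls also include excluded dsRNAs with several or no targets, genes unexpressed in JW18, and well A1, regardless of score.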 The numbers tell different reagents against one gene apart. Names joined by + are all predicted targets of the reagent.

Gene | dsRNA no. | Wolbachia per cell robust z, rep 1 | Wolbachia per cell robust z, rep 2 | Wolbachia per cell robust z, rep 3 | call
CG17224 | 1 | 0.408 | 1.08 | 0.0381 | inactive
CCT3 | 1 | -1.04 | -0.00231 | 0.471 | inactive
Myd88 | 1 | 0.527 | -0.778 | -0.708 | inactive
Myd88 | 2 | 0.87 | -0.198 | -0.282 | inactive
Myd88 | 3 | 1.47 | 1.03 | 1.8 | inactive
CG17233 | 1 | 1.7 | 0.166 | 1.29 | inactive
Argp | 1 | 1.03 | -0.241 | -0.0752 | inactive
lncRNA:noe | 1 | -1.81 | -1.46 | -0.518 | inactive
lncRNA:noe | 2 | -1.69 | 0.543 | 0.338 | inactive
CG7099 | 1 | 0.117 | 0.927 | -0.433 | inactive
CG7099 | 2 | -4.79 | 0.198 | 0.381 | inactive
Tsp86D | 1 | 0.798 | 0.566 | 0.035 | inactive
Ance-5 | 1 | 0.749 | -0.0236 | -2.56 | inactive
Ance-5 | 2 | 0.183 | -0.739 | 0.0156 | inactive
Regnase-1 | 1 | 1.36 | 1.8 | -0.081 | inactive
CG42354 + CG42353 | 1 | -0.853 | 0.454 | 4.06 | inactive
CG31798 | 1 | 0.539 | 0.0895 | -0.651 | inactive
CG31798 | 2 | 0.341 | 0.204 | 2.09 | inactive
CG3515 | 1 | -0.171 | 0.0948 | -6.66 | inactive
CG9044 | 1 | 0.117 | -0.544 | -11.4 | inactive
CG8607 | 1 | -0.442 | 0.242 | 0.169 | inactive
PH4alphaMP | 1 | -1.69 | 0.284 | -1.01 | inactive
CSN1a | 1 | 0.263 | 0.64 | -0.242 | inactive
CG14615 | 1 | 1.18 | -0.0871 | 0.553 | inactive
Dcps | 1 | -2.43 | -2.92 | -0.158 | active
CG17648 | 1 | -5.49 | -0.588 | 0.101 | inactive
CG13601 | 1 | -0.751 | -0.361 | 0.315 | inactive
CR15821 | 1 | -0.464 | -3.85 | -1.76 | active
CR15821 | 2 | 0.0377 | 0.882 | -0.656 | inactive
mas | 1 | 0.000704 | 0.493 | -0.336 | inactive
mas | 2 | -0.353 | -0.0946 | 0.768 | inactive
Atpalpha | 1 | -0.871 | -0.113 | -2.05 | inactive
Atpalpha | 2 | -3.63 | -0.877 | -2.51 | inactive
CG14655 | 1 | 0.0489 | -0.0305 | 1.36 | inactive
CG14655 | 2 | -0.479 | -0.00105 | 1.29 | inactive
Pvf2 | 1 | 1.47 | 1.35 | 0.119 | inactive
Pvf2 | 2 | 0.00593 | 4.45 | 1.88 | active
Epac | 1 | -0.221 | -0.527 | -1.17 | inactive
Epac | 2 | 0.464 | -2.57 | 0.441 | inactive
Epac | 3 | 0.107 | 0.166 | 1.04 | inactive
Cpr72Ec | 1 | 0.0724 | 0.947 | -0.368 | inactive
Pex6 + Hao | 1 | -0.278 | -0.0219 | -0.669 | inactive
RNASEK | 1 | 0.66 | -0.83 | 0.388 | inactive
CSN8 | 1 | -0.0078 | -0.515 | -0.466 | inactive
CG17141 | 1 | -4.79 | 0.829 | -4.38 | active
CG34212 | 1 | 0.212 | 0.206 | 0.763 | inactive
